Measured values from several laboratories, pooled; numbers as filed in NIAID ChemDB.

Common to all: whole-cell or culture tests; species: HIV-1; endpoint: fold resistance

Lines come from different laboratories, so protocols vary.

SMILES,changes,read by,strain or isolate,cells,value
CC(C)OC(=S)Nc1ccc(Cl)c(C(=O)O)c1,RT-Y181C,syncytia,-,CEM,>1
O=C1Nc2ccc(Cl)cc2[C@@](/C=C/C2CC2)(C(F)(F)F)N1,RT-K103N,-,-,-,12.9
CC(C)OC(=O)c1cc(NC(=S)OC(C)C)ccc1Cl,RT-V106A,syncytia,IIIB,CEM,71
CCc1c(Cc2c(Cl)cccc2Cl)nc(SC/C=C/c2ccc(C#N)cc2)[nH]c1=O,RT-Y188L,cytopathic effect / MTT,NNRTI-resistant,MT-4,>20
C=CCOc1cc(NC(=S)OC(C)C)ccc1Cl,RT-L100I,syncytia,-,CEM,14.3
NC(=O)c1[nH]c2ccc(Cl)cc2c1S(=O)(=O)c1ccccc1,RT-K103R V179D P225H,p24,EFV-resistant (RT K103R V179D P225H),C8166,900
O=C1Nc2ccc(Cl)cc2C(C#Cc2cccnc2)(C(F)(F)F)O1,RT-K103N,-,-,-,1.42
CCCC1=C(C(=O)Nc2ccc(Cl)c(C(=O)OCC)c2)SCCO1,RT-V106A,syncytia,Nevirapine-resistant (RT V106A),CEM,>66.7
NS(=O)(=O)c1ccc(NC(=O)CSc2nnc(C(F)(F)F)n2-c2cccc3cccnc23)c(Cl)c1,RT-Y188L,luciferase,NL4-3,HeLa + HeLa-JC53,90
CC[C@H](C)OC(=S)Nc1ccc(Cl)c(C(=O)OC(C)C)c1,RT-Y181C,syncytia,-,CEM,21.7
C=C(c1cc(C)cc(C)c1)c1c(CC)c(=O)[nH]c(=O)n1COC/C=C/c1ccccc1,RT-Y181C,cytopathic effect / MTT,IIIB,MT-4,3330
COCC1=C(C(=O)Nc2ccc(Cl)c(C(=O)OC(C)C)c2)SCCO1,RT-L100I,syncytia,TIBO-resistant (RT L100I),CEM,>14.3
CCCc1cc(=O)oc2c3c(c4c(c12)OC(C)(C)CC4)O[C@H](C)[C@@H](C)C3=O,RT-P236L,cytopathic effect / XTT,-,-,<6
CC(C)OC(=S)Nc1ccc(Cl)c(C(=O)OC2CC2)c1,RT-E138K,syncytia,-,CEM,16.3
CCCCCCCCCCCCCCCCCCOCCOP(=O)(O)CO[C@H](CO)Cn1cnc2c(N)ncnc21,RT-D67N K70R T215Y K219Q,p24,4xAZT,MT-2,0.025
O=C1Nc2ccc(Cl)cc2C(OCC2CC2)(C(F)(F)F)O1,RT-K103N,-,-,-,35.6
Cc1ccc2cccc(-n3c(C)nnc3SCC(=O)Nc3ccc(S(N)(=O)=O)cc3Cl)c2n1,RT-Y188L,luciferase,NL4-3,HeLa + HeLa-JC53,390
CC(C)OC(=S)Nc1ccc(Cl)c(C(=O)SC(C)C)c1,RT-E138K,syncytia,-,CEM,20.1
CCCOC(=O)c1cc(NC(=O)C2=C(C)OCCS2)ccc1Cl,RT-L100I,syncytia,TIBO-resistant (RT L100I),CEM,95
COCCOC(=S)Nc1ccc(Cl)c(C(=O)OC(C)C)c1,RT-V106A,syncytia,-,CEM,36.8
C[C@H]1CO[C@@H]2Cn3cc(C(=O)NCc4ccc(F)cc4F)c(=O)c(O)c3C(=O)N12,E138K/R263K,RT activity,NL4-3,CBMC,2.1
C=C(C)COc1cc(NC(=S)OC(C)C)ccc1Cl,RT-E138K,syncytia,-,CEM,7.78
O=C1Nc2ccc(F)c(F)c2C(C#Cc2ccco2)(C(F)(F)F)O1,RT-K103N,-,-,-,125
CC1=C(C(=O)Nc2ccc(Cl)c(C(=O)OCC3CCC3)c2)SCCO1,RT-L100I,syncytia,TIBO-resistant (RT L100I),CEM,22.4
CC(=O)OCC1=C[C@@H]2C(=O)[C@]3(C=C(C)[C@H](OC(C)=O)[C@@]3(O)[C@@H]1OC(C)=O)[C@H](C)C[C@@H]1[C@H]2C1(C)C,Nevirapine resistant,cytopathic effect / MTT,HE,MT-4,1.31
Cc1ccc(C2CC2)c(-c2ccc3c(c2)CCCO3)c1[C@H](OC(C)(C)C)C(=O)O,INSTI-resistant (IN-E92Q),luminescence,NL4-3,MT-4,1
CCC1=C(C(=O)Nc2ccc(Cl)c(C(=O)OCC(C)C)c2)SCCO1,RT-E138K,syncytia,TSAO-resistant (RT E138K),CEM,10
C=C(c1cc(C)cc(C)c1)c1c(CC)c(=O)[nH]c(=O)n1COC/C(C)=C/c1ccccc1,RT-K103N Y181C,cytopathic effect / MTT,IIIB,MT-4,3330
O=C1Nc2ccc(F)c(F)c2C(C#Cc2ccsc2)(C(F)(F)F)O1,RT-K103N,-,-,-,7.62
CCCCCOC(=S)Nc1ccc(Cl)c(C(=O)OC(C)C)c1,RT-E138K,syncytia,-,CEM,10.9
O=C(CSc1nnnn1-c1ccccc1C(F)F)Nc1ccccc1[N+](=O)[O-],1(RT-K103N Y181C),p24,RT-K103N Y181C,C8166,>2
CCCOC1(C(F)(F)F)OC(=O)Nc2ccc(Cl)cc21,RT-K103N,-,-,-,128
Cc1cc(C#N)cc(C(=O)c2cc(Cl)ccc2OCC(=O)Nc2ccc(OCCCN3CC=CC3)cc2C)c1,RT-P225H,β-galactosidase,HXB2,HeLa + HELA CD4+,~1
O=C1Nc2ccc(F)c(F)c2C(C#Cc2cccs2)(C(F)(F)F)O1,RT-K103N,-,-,-,66.6
CC(C)OC(=S)Nc1ccc(Cl)c(C(=O)OC(C)(C)C)c1,RT-V106A,syncytia,-,CEM,125
CC(C)=CCOc1cc(NC(=S)c2ccoc2C)ccc1Cl,RT-E138K,syncytia,IIIB,CEM,2
Cc1cc2cn[nH]c2cc1NC(=O)COc1ccc(Cl)cc1C(=O)c1cccc(C#N)c1,RT-K101E,β-galactosidase,HXB2,HeLa + HELA CD4+,~1
CCOC(=O)c1cc(NC(=S)OC(C)C)ccc1Cl,RT-V106A,syncytia,-,CEM,167
CCc1c(C(C)c2c(F)cccc2F)nc(SC/C=C/c2ccc([N+](=O)[O-])cc2)[nH]c1=O,RT-K103N,cytopathic effect / MTT,NNRTI-resistant,MT-4,>1437500
CC(C)[C@H](NC(=O)OCc1ccccn1)C(=O)N[C@@H](Cc1ccccc1)[C@@H](O)C[C@H](Cc1ccccc1)NC(=O)OCc1cccnc1,PR-L63P,p24,NL4-3,MT-4,1.875
CC(C)OC(=O)c1cc(NC(=S)OCC2CC2)ccc1Cl,RT-Y181C,syncytia,-,CEM,85.7
CCOC1(C(F)(F)F)OC(=O)Nc2ccc(Cl)cc21,RT-K103N,-,-,-,11
C=CCOc1cc(NC(=S)OC(C)C)ccc1C#N,RT-E138K,syncytia,-,CEM,12
CCn1c(C)c(C(=O)OC)c(C(=O)OC)c1Cc1ccccc1,RT-D67N K70R T215Y K219Q,cytopathic effect / MTT,G910-6 (RT D67N K70R T215Y K219Q),MT-4,2.125
Cc1ccc(-n2c(C)nnc2SCC(=O)Nc2cccc(Cl)c2Cl)cc1,RT-K103N Y181C,luciferase,NL4-3,HeLa + HeLa-JC53,1100
COc1ccc(/C=C/CSc2nc(Cc3c(F)cccc3F)c(C)c(=O)[nH]2)cc1,RT-Y188L,cytopathic effect / MTT,NNRTI-resistant,MT-4,>9139
CN1CCN(C(=O)c2ccc3c(=O)c4ccccc4[nH]c3c2)CC1,RT-L100I,syncytia,TIBO-resistant (RT L100I),CEM,64.3
CCOCn1c(Cc2ccccc2)c(C(C)C)c(=O)[nH]c1=O,RT-K103N Y181C,cytopathic effect / MTT,IIIB,MT-4,5000
CCCCCOC(=O)c1cc(NC(=O)C2=C(C)OCCS2)ccc1Cl,RT-V106A,syncytia,Nevirapine-resistant (RT V106A),CEM,16.7
Cc1ccc2cccc(-n3c(SCC(=O)Nc4ccc(S(N)(=O)=O)cc4Cl)nnc3C(F)(F)F)c2n1,RT-Y188L,luciferase,NL4-3,HeLa + HeLa-JC53,37
COc1ccc(NC(=S)OC(C)C)cc1CC(=O)OC(C)C,RT-L100I,syncytia,-,CEM,92.2
CCN1c2nc(C(F)(F)F)ccc2NC(=O)c2cc(CCOc3cc[n+]([O-])c4ccccc34)cnc21,RT-Y188L,p24,-,C8166,40.6
COC(=O)Oc1ccc(NC(=O)C2=C(C)OCCS2)cc1C(=O)OC(C)C,RT-E138K,syncytia,TSAO-resistant (RT E138K),CEM,>14.3
C/C=C\COc1cc(NC(=S)OC(C)C)ccc1OC,RT-E138K,syncytia,-,CEM,36.8
O=C1CC(C#CC2CC2)(C(F)(F)F)c2cc(Cl)ccc2N1,RT-L100I,-,-,-,70.9
Cc1cc(S(N)(=O)=O)ccc1NC(=O)COc1ccc(Cl)cc1C(=O)c1cc(Cl)cc(C#N)c1,RT-Y181C,cytopathic effect / propidium iodide,Nevirapine-resistant (RT Y181C),MT-4,~1
CCOC(=O)c1cc(NC(=S)OC(C)C)ccc1C,RT-Y181C,syncytia,-,CEM,2750
Nc1nc(NC2CC2)c2ncn([C@H]3CO[C@@H](CO)O3)c2n1,RT-V75I,RT activity,HXB2(RT-V75I) Recombinant,MT-2,2
O=C1Nc2ccc(Cl)cc2C(C#Cc2ccoc2)(C(F)(F)F)O1,RT-K103N,-,-,-,72
CCOC(=O)C(C)Oc1cc(NC(=S)OC(C)C)ccc1Cl,RT-L100I,syncytia,-,CEM,10
Cc1ccc(C2CC2)c(-c2ccc3c(c2C)CCCO3)c1[C@H](OC(C)(C)C)C(=O)O,PI-resistant ARP-4596 (L10R/M46I/L63P/V82T/I84V),luminescence,NL4-3,MT-4,1
CC(C)OC(=O)c1cc(NC(=S)N(C)C(C)C)ccc1Cl,RT-L100I,syncytia,-,CEM,>1
CCc1cc(C#N)cc(C(=O)c2cc(Cl)ccc2OCC(=O)Nc2ccc(S(N)(=O)=O)cc2C)c1,RT-L100I,β-galactosidase,HXB2,HeLa + HELA CD4+,~1
O=c1[nH]cnc2c1ncn2[C@@H]1O[C@H](CO)C[C@@H]1F,RT-V75I,RT activity,IIIB BCH-13520-resistant (RT V75I),MT-2,7.75
CC(C)OC(=S)Nc1ccc(Cl)c(C(=O)OCc2ccccc2)c1,RT-L100I,syncytia,-,CEM,15.7

For reference, 5 entries again:

| SMILES | changes | read by | strain or isolate | cells | value |
|---|---|---|---|---|---|
| CCCC1=C(C(=O)Nc2ccc(Cl)c(C(=O)OCC)c2)SCCO1 | RT-V106A | syncytia | Nevirapine-resistant (RT V106A) | CEM | >66.7 |
| O=C1Nc2ccc(Cl)cc2C(C#Cc2ccoc2)(C(F)(F)F)O1 | RT-K103N | - | - | - | 72 |
| CCCOC(=O)c1cc(NC(=O)C2=C(C)OCCS2)ccc1Cl | RT-L100I | syncytia | TIBO-resistant (RT L100I) | CEM | 95 |
| NS(=O)(=O)c1ccc(NC(=O)CSc2nnc(C(F)(F)F)n2-c2cccc3cccnc23)c(Cl)c1 | RT-Y188L | luciferase | NL4-3 | HeLa + HeLa-JC53 | 90 |
| CCn1c(C)c(C(=O)OC)c(C(=O)OC)c1Cc1ccccc1 | RT-D67N K70R T215Y K219Q | cytopathic effect / MTT | G910-6 (RT D67N K70R T215Y K219Q) | MT-4 | 2.125 |

Fold resistance: result on the changed form divided by that on wild type. An empty or dashed field is not shown.